{
  "source": "patent EP2181998B1",
  "about": "“New benzothiazinone derivative and its use as antibacterial agent” (priority 2006, dated 2007)",
  "system": "M. fortuitum B",
  "test": "MIC by micro broth dilution method in Mueller-Hinton broth (NCCLS)",
  "data": [
    {"smiles": "CCOC1(OCC)CCN(c2nc(=O)c3cc([N+](=O)[O-])cc([N+](=O)[O-])c3s2)CC1", "values": [
      {"measurement": "MIC M.fortuitum", "value": "0,08 µg/ml"}
    ]}
  ]
}
